In patent US7148237B2, “Nitrogen-containing heteroaryl compounds having HIV integrase inhibitory activity” (Shionogi & Co., Ltd., priority 2001, dated 2006):
Values after ≈ are worked out from the molar mass of the structure shown.

Molecular target: integrase (Human immunodeficiency virus type 1 group M subtype B, UniProt P04585)
Assay: Integrase inhibition assay (microtiter plate strand transfer, substrate DNA/target DNA, anti-digoxigenin ELISA readout)
Type: biochemical
Details: concentration of the compound at percent inhibition 50%; OD at 405 nm
Method: The inhibitory activities against integrase of the compounds in the present invention have been determined by the assay described below.
Substrate DNA and target DNA, which sequences were indicated below, were synthesized by Amersham Pharmacia Biotech and dissolved in KTE buffer (composition: 100 mM KCl, 1 mM EDTA, 10 mM Tris-HCl (pH 7.6)) at concentration of 2 pmol/μl and 5 pmol/μl, respectively. The DNA solutions were annealed with each complement by slowly cooling after heating.
Streptavidin, obtained from Vector Laboratories, was dissolved in 0.1 M carbonate buffer (composition: 90 mM Na2CO3, 10 mM NaHCO3) at concentration of 40 μg/ml. After coating each well of microtiter plates (obtained from NUNC) with 50 μl of the above solution at 4° C. over night, each well was washed twice with PBS (composition: […], 0.27 mM KCl, 0.43 mM Na2HPO4, 0.14 mM KH2PO4) and blocked with 300 μL of 1% skim milk in PBS for 30 min. Additionally, each well was washed twice with PBS and added 50 μl of substrate DNA solution (2 pmol/μl). The microtiter plates were kept at room temperature for 30 min. Then, each well was washed twice with PBS and once with H2O. […]
The microtiter plates were incubated at 30° C. for 1 hour. […] The optical density (OD) at 405 nm of each well was measured and the percent inhibition was determined by the following expression. […]

CCOC(=O)c1ccc2cc(Cc3ccc(F)cc3)cnc2c1O gave an IC50 of 0.22 µg/mL (≈ 0.676 µM).
